Data from PMC11623267, “Inhibitors of malaria parasite cyclic nucleotide phosphodiesterases block asexual blood-stage development and mosquito transmission” (Science Advances, 2024).

Tested on: P. falciparum clinical isolates from Tororo and Busia Districts of Uganda
Assay: Ex vivo 72-hour SYBR Green assay, Ugandan clinical isolates
Assay type: cell-based, Plasmodium falciparum
Settings: curve fits
From the text: Clinical isolates were from the Tororo District of Uganda, located in the central-eastern part of the county near the Kenya border. Tororo and surrounding areas have high-intensity, year-round malaria transmission. […] Patients reporting use of antimalarial treatment within the previous 30 days or with evidence of an infection with other Plasmodium species were excluded. Informed consent was obtained from patients and/or primary care givers (depending on age); children aged 8 to 17 years provided assent. Two to 5 ml of blood was collected by venipuncture in a heparin tube. […]
Samples were delivered to the adjacent IDRC laboratory at Tororo District Hospital or transported by car from Masafu Hospital on the day of collection for storage of blood spots on filter paper (for isolation of nucleic acids) and initiation of ex vivo culture of malaria parasites. […] Fluorescence was quantified using a BMG Fluostar Optima plate reader at an excitation of 485 nm and an emission of 530 nm, and data were plotted using GraphPad Prism 7. […] For each isolate, a Z′ factor to assess assay quality was calculated from positive controls (eight drug-free wells) and negative controls (eight parasite-free, red cell control wells). […]

CC(C)c1[nH]nc2c(=O)[nH]c(Cc3ccccc3F)nc12 [SAL-0010042]
H.S. (mean Hill slope): 2.93

CCNC(=O)c1cnc(OCC(C)C)c(-c2nc3c(C(C)C)n[nH]c3c(=O)[nH]2)c1 [SAL-0010333]
H.S. (mean Hill slope): 2.98
